According to patent publication US9677053B2, “Laccases for bio-bleaching” (BASF ENZYMES LLC, priority 2006, dated 2017):

B1: BD22865: laccase from Fusarium verticillioides, SEQ ID NO: 4, expressed in Aspergillus niger, tested as culture supernatant (protein)
chain: MALIERVWHACVSIVAWLTMWPTSPSTSYQHPLRPNHPHTHIEDPSPGFPIFHPPPGDHEFLCEYPEMTGFVQCSIPENRECWLRHPDGREFNIHTNYENFAPKGIMRHYTLNITESWYNADGQNFTEAKLFNGEYPGPWLEACWGDTFNITVINSMKRNGTSIHWHGIRQNQTMDMDGVNGITQCPIAPGDSFSYIFNTTQYGTSWYHSHYSVQYADGLQGPITIHGPQSAPYDATKRPLLMTDWSHESAFRLLFPGSQFSNKTILLNGAGNVSHYGYTPTLPIPDNYELYFNKTPTDKPTRPKRYLLRLINTSFDSTLVFSIDNHWLQIVTSDFVPIEPYFNTSVLIGIGQRYNVIVEANPLGGDVNEIPDDGNFWIRTWVADACGIAPGGEGYEKTGILRYNHSDKALPSSQPWVNISKACSDETYTSLRPKIPWYIGPAANAQNGERFNVTFDPNAKNTPEFQEEYPVATFGLQRPGQNFRPLQINYSDPVMFHLDEPRDTYPPKWVVIPEDYTEKEWVYFVLTIEGISARTGAHPIHLHGHDFALLQQEENQTYDPSRLNLKLDNPPRRDVVLLPRNGFVVIAFKADNPGIWLMHCHIARHASEGLAMQVLERQGDSNKLFPVGSPNMIEAERVCKVWETWMDGEKDFFEGDSGI
modifications: Fusarium verticillioides
B2: BD22449: laccase from Cochiobolus heterostrophus, SEQ ID NO: 2, expressed in Aspergillus niger, tested as culture supernatant (protein, listed as Cochliobolus heterostrophus)
chain: MVSSISRVVTALGLLLPTVTSSVVPHKSLAPRTPEVPWKNTGLFSGHSKRQGYETACNHGPESRGCWIDDFNIDTDMDVEWPDTGKTVKYHLTITNTTGAPDGFERPMFLINGQYPGPTITADWGDVLEITVTNGLENNGTGIHWHGLRQLGTNEQDGVNGITECPIAPGDSKLYRFKATQYGTTWYHSHYSVQYGDGIVGPLIIKGPSTANYDIDLGAFPMTDWFHATTFTVNAAAVHANGPPTADNVLVNGSMTSSFGGKYAETILTPGKSHLLRLMNVGINNYLHVGLDGHQFQVISADFTPIEPFYTDSLVLAVGQRYEVIINATEAVGNYWLRVGTGGNCDGPNANAANIRSIFRYAGAPTEDPDTTGSLPSGCYDEDVVPYAKTTVPQEMPEQLSVGFNPNWTSDVTQNQGLVQWLVNGNPMAVDLEVPTLQSVLDGNVTYGNNRHVFAVDEKHQWQYWVIQQNSSNPPLPHPIHLHGHDFYVLAQVENAVWNGDISTLKTDNPIRRDTADLPAGGYLVLAFESDNPGAWLMHCHIPFHVAAGLGVQFLERESEIKAQDGYAEMHRTCANWQSWRYKYHPNGILFPGDSGLRRRN

What was measured:
[1] = thermotolerance, residual activity on ABTS; type: biochemical; details: an hour
Method: Laccases BD22449 and BD22865, identified and characterized in Examples 1-5 above were assayed for thermotolerance. Briefly, each laccases was tested at 50° C., 60° C. and 70° C. for 0-60 minutes wherein the residual activity on ABTS was measured. Supernatants from the Aspergillus cultures expressing BD22449 (SEQ ID NO:2) and BD22865 (SEQ ID NO:4) were isolated as described in Example 2. Supernatants were incubated at 50° C., 60° C. or 70° C. for 1 min, 5 min, 10 min, 30 min, and 60 min. For each time point, the oxidation of 2, 2′-azino-bis(3-ethylbenzthiazoline-6-sulfonic acid) (ABTS) by the laccase was measured using an OXYTHERM™ oxygen measurement instrument.

[2] = TEMPO oxidation, oxygen consumption (OXYTHERM); type: biochemical; details: concluded from TEMPO, violuric acid and HBT oxidation at pH 8
Method: Briefly, 50 μL of test culture supernatants isolated as described in Example 2 was incubated with 950 uL TEMPO (1 mM in Britton-Robinson Buffer at pH 8) at 22° C. in an OXYTHERM™ oxygen measurement instrument (Hansatech, England). Oxygen consumption was measured over time according to the manufacturer's instructions.

Molecule | tolerance of 50° C. heat challenge [1] | redox potential class of laccase [2] | tolerance of 60° C. heat challenge ([1]; 60° C.)
B1 | tolerated a 50 °C heat challenge well | high redox potential | 
B2 | tolerated a 50 °C heat challenge well | medium redox potential | unchallenged
